From US20250276054A1 (NOVAVAX, published 2025)

Legend:
A/Colorado/18/2022 HA = A/Colorado/18/2022 HA (influenza A (H5N1) virus, strain …); assay: cell-based or functional assay
A/Mink/Spain/3691-8 HA = A/Mink/Spain/3691-8 HA (influenza A (H5N1) virus, strain …); assay: cell-based or functional assay

Binder | Hemagglutination Inhibition Endpoint Titers (A/Colorado/18/2022 HA) [ng/mL] | Pseudovirus Neutralization (IC50, ng/mL) (A/Colorado/18/2022 HA) [ng/mL] | Hemagglutination Inhibition Endpoint Titers (A/Mink/Spain/3691-8 HA) [ng/mL] | Pseudovirus Neutralization (IC50, ng/mL) (A/Mink/Spain/3691-8 HA) [ng/mL]
mAb NVX.73.2 (antibody, V domains shown) VH: QIQLVQSGPELKKPGETVKISCKASGYTFTNYGMNWVKQAPGKGLKWMDWIHTYTGEPTYADDFKGRFAFSLETSASTAYLQINNLTNEDTATYFCARQYGSSYGYFDYWGQGTTLTVSS VL: DIVLTQSPASLAVSLGQRATISCRASESVDSYGKSFMHWYQQKPGQPPKLLIYRASNLESGIPARFSGSGSRTDFTLTINPVEADDVATYYCQQSNEDPRTFGGGTKLEIK | > 500 | 22.4 | > 500 | 43.7
mAb NVX.361.4 (antibody, V domains shown) VH: QVQVQQSGSELVKPGASVRLSCKASGYNFTTYYMYWVKQRPGQGLEWIGEINPTNGISNFNERFKNKATLTVDKSSSTAYMQLSSLTSEDSAVYYCTRASDYYGGSWFAYWGQGTLVTVSA VL: DIVMTQSQKFMSTSVGDRVSVTCKASQNVYTNVAWYQQKPGQSPKALIYSASFRYNGVPDRFTGSGSGTDFTLTISNVQSEDLADYFCQQYNNYPLTFGAGTKLELK | 250 | 4.86 | 250 | 13.1
